This is an account of results in patent publication US5874287, “Mutagenized DNA molecules encoding modified subunit a of Cholera-toxin” (dated 1999).

The test has as its target G protein alpha subunit of human erythrocyte membranes (human) (UniProt P63092). As to conditions: scale: relative specific activity.

Substance “Commercial CTXA1 (native cholera toxin subunit A1) (enzyme)” displayed an SPECIFIC ACTIVITY FOR HEM G. PROTEIN (ADP-ribosyltransferase, relative) of 1.
